{
  "source": "patent US20260001922A1",
  "about": "“PEPTIDES TARGETING SODIUM CHANNELS TO TREAT PAIN” (priority 2022, published 2026)",
  "assay_in_all_cases": "cell-based or functional assay",
  "key": {"[1]": {"biological_target": "Nav1.9 channel (co-expressing with human Trkb, Navβ1, and Navβ2 subunits) (human), Q9UI33"}, "[2]": {"biological_target": "human Nav1.8 channel (co-expressing with human Navβ1 and Navβ2 subunits) (human), Q9Y5Y9"}, "[3]": {"biological_target": "human Nav1.2 (human), Q99250"}, "[4]": {"biological_target": "human Nav1.4 (human), P35499"}, "[5]": {"biological_target": "human Nav1.5 (human), Q14524"}},
  "data": [
    {"binder": "QCQKWMQTCDKDRKCCEGFRCRLWCRKELL (modifications not checked)", "note": "[PTx2-3127]", "values": [
      {"measurement": "hNav1.9 IC50 (nM), whole-cell patch clamp", "setting": "[1]", "value": "> 150000", "unit": "nM"},
      {"measurement": "hNav1.8 IC50 (nM), whole-cell patch clamp", "setting": "[2]", "value": "> 150000", "unit": "nM"}
    ]},
    {"binder": "QCQKWMQTCDKARKCCEGFRCRLWCRKELL (modifications not checked)", "note": "[PTx2-3128]", "values": [
      {"measurement": "hNav1.9 IC50 (nM), whole-cell patch clamp", "setting": "[1]", "value": 8000, "unit": "nM"}
    ]},
    {"binder": "YCQKAFWTCDSARKCCEGLRCRLWCRKELW (modifications not checked)", "note": "[PTx2-3064]", "values": [
      {"measurement": "percent block of hNav1.2 current at 10 µM peptide", "setting": "[3]", "value": 92, "unit": "%"},
      {"measurement": "percent block of hNav1.4 current at 10 µM peptide", "setting": "[4]", "value": 66, "unit": "%"},
      {"measurement": "percent block of hNav1.5 current at 10 µM peptide", "setting": "[5]", "value": 25, "unit": "%"}
    ]},
    {"binder": "YCQKWMQTCDKDRKCCEGLRCRLWCRKELL (modifications not checked)", "note": "[PTx2-3066]", "values": [
      {"measurement": "percent block of hNav1.2 current at 10 µM peptide", "setting": "[3]", "value": 41, "unit": "%"},
      {"measurement": "percent block of hNav1.4 current at 10 µM peptide", "setting": "[4]", "value": 34, "unit": "%"},
      {"measurement": "percent block of hNav1.5 current at 10 µM peptide", "setting": "[5]", "value": 1, "unit": "%"}
    ]}
  ]
}
